In the supplement of paper PMC9931576:
Human monoclonal antibodies against the spike receptor-binding domain (heavy:light variable regions). IC50 against pseudoviruses bearing the spike of naturally observed variants; lower = stronger; >10 µg/ml means not reached at the top dose. No active / inactive call. The stated detection limit is 0.0005 µg/ml; values near or below 0.001 µg/ml lie at the floor of the assay.

B1: BD55-6682 (protein)
chain 1: QVQLQESGPGVVKPSETLSLTCTVSGGSTNSDSWSWIRQSPGKGLEWIGYIYYSGTTNYNPSLMSRVTISLDTSKNQFFLKLGSVTAADTAVYYCARETRSQVGFYYMDVWGKGTTVTVSS
chain 2: DIQMTQSPSSLSASVGDRVTITCRASQSISTYLNWYQQKPGKAPKVLIYAASSLQSGVPSRFSGSGSGRDFTLTITKLQPEDFATYYCQQSYTVPPYTFGQGTKLET
B2: BD55-6683 (protein)
chain 1: QVQLQESGPRLVKPSQTLSLTCTVSGDSISSGNYYWSWIRQPAGKGMEWIGRIYSRGSTKYTNYRPSLGSRVTMSVDTSKNQFSLKLNSVTAADTAVYYCARGGCDTTSCFGFYFYAMDVWGQGTTVTVSS
chain 2: DIQMTQSPSSLSASVGDRVTITCQASHDINNHLNWYQQKLGTAPKLLIYDASNLQTGVPPRFSGSASGAHFTLTISSLQPEDFATYFCQQYRDLPLTFGPGTKVDFK
B3: BD55-6684 (protein)
chain 1: EVQLVQSGAEVKKPGESLKISCKGSGYSFTTYWLGWVRQVPGKGLESMGIIYPGDSDTKYSPSFQGQVTISVDKSISTAYLQWSSLQASDTGIYYCASSFWGVGLTHAFDIWGQGTMVTVSS
chain 2: DIQMTQSPSTLSASVGDRVTITCRASQSISSWLAWYQQKPGKAPKILIYKASTLESGVPSRFSGSGSGTKFTLTITSLQPDDFATYYCQQYSSYSRTFGQGTKVEIK
B4: BD55-6685 (protein)
chain 1: QPQLRESGSGLVRPSQTLSLTCGVSGASISSDGYSWAWIRQPPGMGLEWIGYIHQSGSTFYDPSFQSRVTISVDRSKNNLTLKLASVTAADSAVYFCARILRDDKPVEGVFDIWGQGTMVIVSS
chain 2: EIVMTQSPATLPVSPGERATLSCRASQYVSSNLAWYQQKPGQAPRLLIYGTSTRAAGIPTRFSGSGSGTEFTLTISSLQSNDFAVYYCQQYHNWPLWTFGQGTKVEI
B5: BD55-6686 (protein)
chain 1: DVQLLESGGGLVQPGGSLRLSCAASGFTFSNYAMNWVRQAPGKGLEWVSGTSSSGSGTVYADSVKGRFTMSRDNSKNTLYLQMNSLRADDAAVYYCVKDFGTSITFDVFDMWGQGTMVTVSS
chain 2: DIQMTQSPSSLSASVGDRVTLTCRASQNIINYLNWYQQRPGKAPKLLIYGASNLQSGVPSRFSGSGSGTDFTLTINSLQPEDFATYYCQQSYETPPLTFGGGTKVEIK
B6: BD55-6688 (protein)
chain 1: QVQLVQSGAEVKKPGASVKVSCKASGDTFSSYDINWVRQATGQGLEWMGWMNPKSGNTGYAQKFQGRVTMTRNTSISTVYMELSSLRSEDTAVYYCARERSELFYYLAVDVWGQGTPVTVSS
chain 2: DIQMTQSPSSLSASVGDRVTITCRASQSINIYLHWYQQKPGNAPKLLIYAASSLQGGVPSRFSGSGSGTDFTLTISSLQPEDFATYYCQQSYTTLRTFGGGTKVEIK

The binders below were run against SARS-CoV-2 Omicron BA.1 spike pseudovirus (assay: pseudovirus neutralization IC50; higher = weaker neutralization).
Protocol: (§1)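 Single-round VSV luciferase pseudovirus mixed with antibody dilutions for 1 h and put on Huh-7 cells for about a day; IC50 from the dose curve.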

| Binder | pseudovirus neutralization IC50 |
| --- | --- |
| B1 | > 10 µg/mL |
| B2 | > 10 µg/mL |
| B3 | > 10 µg/mL |
| B4 | > 10 µg/mL |
| B5 | > 10 µg/mL |
| B6 | > 10 µg/mL |

The binders below were run against SARS-CoV-2 Omicron BA.2 spike pseudovirus in the same assay as above.
Protocol: as §1

| Binder | pseudovirus neutralization IC50 |
| --- | --- |
| B1 | > 10 µg/mL |
| B2 | > 10 µg/mL |
| B3 | > 10 µg/mL |
| B4 | > 10 µg/mL |
| B5 | > 10 µg/mL |
| B6 | > 10 µg/mL |

What follows are binders tested against SARS-CoV-2 Omicron BA.2.75 spike pseudovirus in the same assay as above.
Protocol: as §1

| Binder | pseudovirus neutralization IC50 |
| --- | --- |
| B1 | > 10 µg/mL |
| B2 | > 10 µg/mL |
| B3 | > 10 µg/mL |
| B4 | > 10 µg/mL |
| B5 | > 10 µg/mL |
| B6 | > 10 µg/mL |

The binders below were run against SARS-CoV-2 Omicron BA.5 spike pseudovirus in the same assay as above.
Protocol: as §1

| Binder | pseudovirus neutralization IC50 |
| --- | --- |
| B1 | > 10 µg/mL |
| B2 | > 10 µg/mL |
| B3 | > 10 µg/mL |
| B4 | > 10 µg/mL |
| B5 | > 10 µg/mL |
| B6 | > 10 µg/mL |

Each binder was assayed against SARS-CoV-2 Omicron BQ.1.1 spike pseudovirus in the same assay as above.
Protocol: as §1

| Binder | pseudovirus neutralization IC50 |
| --- | --- |
| B1 | > 10 µg/mL |
| B2 | > 10 µg/mL |
| B3 | > 10 µg/mL |
| B4 | > 10 µg/mL |
| B5 | > 10 µg/mL |
| B6 | > 10 µg/mL |

The binders below were run against SARS-CoV-2 Omicron XBB spike pseudovirus in the same assay as above.
Protocol: as §1

| Binder | pseudovirus neutralization IC50 |
| --- | --- |
| B1 | > 10 µg/mL |
| B2 | > 10 µg/mL |
| B3 | > 10 µg/mL |
| B4 | > 10 µg/mL |
| B5 | > 10 µg/mL |
| B6 | > 10 µg/mL |

These binders were tested against SARS-CoV-2 early D614G spike pseudovirus in the same assay as above.
Protocol: as §1

| Binder | pseudovirus neutralization IC50 |
| --- | --- |
| B1 | > 10 µg/mL |
| B2 | 2.22 µg/mL |
| B3 | 1.72 µg/mL |
| B4 | > 10 µg/mL |
| B5 | > 10 µg/mL |
| B6 | > 10 µg/mL |
